Anti-infective test results gathered from many reports (values: NIAID ChemDB through PubChem).

Common to all: whole-cell or culture tests; species: Candida albicans; measure: inhibition

An empty or dashed field is not shown.

SMILES | strain | method | tested at | value
CCCCCCCCC/C=C/C(=O)O | SC5314 | XTT | 300 µM | 90%
CC(N1CCN(c2ccc(-n3cnnn3)cc2)C1=O)[C@](O)(Cn1cncn1)c1ccc(F)cc1F | Clinical isolates | - | 2 µg/mL | 90%
C[C@H]1[C@H](O)[C@@H](C)/C=C/C=C/C=C/C=C/C=C/C=C/C=C/[C@H](O[C@@H]2O[C@H](C)[C@@H](O)[C@H](N)[C@@H]2O)C[C@@H]2O[C@](O)(C[C@@H](O)C[C@@H](O)CC[C@H](O)[C@@H](O)C[C@@H](O)CC(=O)O[C@H]1C)C[C@H](O)[C@H]2C(=O)O | ATCC 44859 | broth dilution | 0.54 µM | 80%
OC(Cn1cncn1)(Cn1cncn1)c1ccc(F)cc1F | 75 strains | agar diffusion / agar | 15 µg/mL | 65%
NC(=O)[C@H](Cc1c[nH]c2ccccc12)NC(=O)[C@H](CCCN=C(N)N)NC(=O)[C@@H](Cc1cccc2ccccc12)NC(=O)[C@@H](N)Cc1cnc[nH]1 | - | colony count | 100 µM | 43%
CO[C@H]1/C=C/O[C@@]2(C)Oc3c(C)c(O)c4c(O)c(c(/C=N/N5CCN(C)CC5)c(O)c4c3C2=O)NC(=O)/C(C)=C\C=C\[C@H](C)[C@H](O)[C@@H](C)[C@@H](O)[C@@H](C)[C@H](OC(C)=O)[C@@H]1C | 20 isolates | - | 0.4 µg/mL | 25%
C[C@H]1[C@H](O)[C@@H](C)/C=C/C=C/C=C/C=C/C=C/C=C/C=C/[C@H](O[C@@H]2O[C@H](C)[C@@H](O)[C@H](N)[C@@H]2O)C[C@@H]2O[C@](O)(C[C@@H](O)C[C@@H](O)CC[C@H](O)[C@@H](O)C[C@@H](O)CC(=O)O[C@H]1C)C[C@H](O)[C@H]2C(=O)O | ATCC 64549 | - | 3.1 µg/mL | >99.9%
CC1(C)CCC[C@]2(C)[C@H]3C=C4C(=CC(=O)C(O)=C4Cl)O[C@@]3(C)CC[C@@H]12 | ATCC 90028 | - | 20 µg/mL | 0%
Clc1ccccc1C(c1ccccc1)(c1ccccc1)n1ccnc1 | 75 strains | agar diffusion / agar | 10 µg/mL | 62%
Nc1c(Br)cc(Br)cc1CNC1CCC(O)CC1 | NCCLS67/ ATCC 90029 | MTT | 2000 µg/mL | 90%
c1ccc2c(c1)-c1nccc3ccnc-2c13 | B311 | - | 12.5 µg/mL | 80%
CCOC(=O)C1C(c2ccc(Cl)cc2)CC(c2ccccc2)=CC12NCCN2 | - | - | 200 µg/mL | 0%
Oc1ccc(/C=C/c2cc(O)cc(O)c2)cc1 | CAI.4 | - | 400 µg/mL | <20%
CCCCCSc1nc2ccc(N)cc2s1 | IEM 49/64 | - | 100 µM | ≥70%
CCC(C)n1ncn(-c2ccc(N3CCN(c4ccc(OC[C@H]5CO[C@](Cn6cncn6)(c6ccc(Cl)cc6Cl)O5)cc4)CC3)cc2)c1=O | 75 strains | agar diffusion / agar | 10 µg/mL | 71%
CCC[CH2][Sn]([CH2]CCC)([NH]c1ccccc1C(=O)O)[O]C(=O)c1ccccc1N | ATCC 18804 | broth dilution | 20 µg/mL | 95%

Again, the opening 2 rows:

CCCCCCCCC/C=C/C(=O)O ; strain: SC5314 ; method: XTT ; tested at: 300 µM ; value: 90%
CC(N1CCN(c2ccc(-n3cnnn3)cc2)C1=O)[C@](O)(Cn1cncn1)c1ccc(F)cc1F ; strain: Clinical isolates ; tested at: 2 µg/mL ; value: 90%

Percent inhibition refers to the dose given; in toxicity tests it is the harm to the cells. Conditions beyond the fields shown may differ between rows.